Anti-infective test results gathered from many reports (values: NIAID ChemDB through PubChem).

All rows: whole-cell or culture tests; species: Candida albicans; read-out: MIC

a–b is a range or a potency band. Neighbouring rows are from separate reports. An empty or dashed field is not shown.

NC(N)=NS(=O)(=O)c1ccc(NC2=C(Cl)C(=O)c3ccccc3C2=O)cc1 ; value: 50 µg/mL
OC(Cc1ccccn1)(Cn1cncn1)c1ccc(F)cc1F ; strain or isolate: ATCC 90028 ; value: 0.125 µg/mL
COc1ccc(/C=C2\Sc3nnc(CNc4ccc(F)c(Cl)c4)n3N=C2c2cc(F)c(Cl)cc2Cl)cc1OC ; value: 6 µg/mL
O=C1C(Cl)=C(Nc2ncccn2)C(=O)c2ccccc21 ; value: 50 µg/mL
CCCC(C)Oc1ccc(CON2C(N)=NC(N)=NC2(C)C)cc1 ; value: 60 µg/mL
c1ccc(-c2ccc(C(c3ccccc3)n3ccnc3)cc2)cc1 ; strain or isolate: B311 ; read by: visual reading ; value: 8 µg/mL
Cc1noc(C)c1C(F)(F)C(O)(Cn1cncn1)c1ccc(F)cc1F ; strain or isolate: ATCC 90028 ; value: 0.125 µg/mL
O=C1C(=O)c2ccccc2C(O)=C1Nc1ccc(C(=O)O)cc1 ; value: 100 µg/mL
CCCCCOc1ccc(-c2ccc(-c3ccc(C(=O)N[C@H]4CCCNC(=O)C5C[C@H](NCC(N)CO)CN5C(=O)C(C(C)O)NC(=O)C(CCc5ccc(O)cc5)NC(=O)C5C[C@@H](O)CN5C(=O)C(C(C)O)NC4=O)cc3)cc2)cc1 ; strain or isolate: ATCC 62376 ; value: 0.39 µg/mL
Fc1cc(C2=Nn3c(COc4ccc(Cl)cc4Cl)nnc3S/C2=C\c2ccc(Cl)cc2)c(Cl)cc1Cl ; value: 6 µg/mL
N#Cc1c(-c2cccc(O)c2)cc(-c2cc3cc(F)ccc3oc2=O)nc1NS(=O)(=O)c1ccccc1 ; strain or isolate: MTCC 227 ; read by: turbidity ; value: 250 µg/mL
COc1ccc(C2CC(c3ccc4ccccc4c3)=Cc3[nH][nH]c(=O)c32)cc1 ; value: 50 µg/mL
CCCCCCCCOc1ccc(C(=O)NC2C[C@@H](O)[C@@H](O)NC(=O)C3[C@@H](O)[C@@H](C)CN3C(=O)C(C(C)O)NC(=O)C([C@H](O)[C@@H](O)c3ccc(O)cc3)NC(=O)C3C[C@@H](O)CN3C(=O)C(C(C)O)NC2=O)cc1 ; strain or isolate: MY1783 ; value: 1 µg/mL
Cc1cccc(-n2c(=S)[nH]c3c(sc(=S)n3-c3ccccc3)c2=O)c1 ; strain or isolate: DSM 70443 ; value: 90 µg/mL
OC(Cn1cncn1)(c1ccc(F)cc1F)C(F)(F)c1nc2ccccc2o1 ; strain or isolate: ATCC 90028 ; value: 0.25 µg/mL
Nc1[nH]c(=O)ncc1F ; strain or isolate: B311 ; value: 0.004 µg/mL
Cn1c(C(F)(F)C(O)(Cn2cncn2)c2ccc(F)cc2F)nc2ccccc21 ; strain or isolate: ATCC 90028 ; value: 0.125 µg/mL
COc1ccc2ncn(CC(O)(Cn3cncn3)c3ccc(F)cc3F)c2c1 ; value: 100–200 µg/mL
Cc1ccc(C2CC(c3ccc4ccccc4c3)=Cc3[nH][nH]c(=O)c32)cc1 ; value: 25 µg/mL
Cc1ccc(NC2=C(Cl)C(=O)c3ccccc3C2=O)cc1 ; value: 100 µg/mL
c1ccc(-c2c[nH]cc2C(c2cccc3ccccc23)n2ccnc2)cc1 ; value: 1.7 µg/mL
CSc1nc2c(sc(=S)n2-c2ccccc2)c(=O)n1-c1ccccc1 ; strain or isolate: DSM 70443 ; value: 60 µg/mL
N#Cc1c(-c2ccc(Cl)cc2)cc(-c2cc3cc(F)ccc3oc2=O)nc1NS(=O)(=O)c1ccccc1 ; strain or isolate: MTCC 227 ; read by: turbidity ; value: 1000 µg/mL
COc1ccc(/C=C2\Sc3nnc(COc4ccccc4Cl)n3N=C2c2cc(F)c(Cl)cc2Cl)cc1OC ; value: 12.5 µg/mL
O=c1[nH][nH]c2c1C(c1ccc(Br)cc1)CC(c1ccc3ccccc3c1)=C2 ; value: 25 µg/mL
CCC(C)n1ncn(-c2ccc(N3CCN(c4ccc(OC[C@H]5CO[C@](Cn6cncn6)(c6ccc(Cl)cc6Cl)O5)cc4)CC3)cc2)c1=O ; strain or isolate: B311 ; read by: visual reading ; value: >64 µg/mL
Cc1ccc(-c2nc3ccccc3n2CC(O)(Cn2cncn2)c2ccc(F)cc2F)cc1 ; value: 100–200 µg/mL
Fc1cc(C2=Nn3c(CNc4ccccc4)nnc3S/C2=C\c2ccc(Cl)cc2Cl)c(Cl)cc1Cl ; value: 12.5 µg/mL
CCCCCOc1ccc(CON2C(N)=NC(N)=NC2(C)C)cc1 ; value: 30 µg/mL
OC(Cn1cncn1)(Cn1c(-c2ccc(Cl)cc2)nc2ccccc21)c1ccc(F)cc1F ; value: 6.25–12.5 µg/mL
CCn1cc(-c2ccc(Cl)cc2)c(C(c2ccc(Cl)cc2Cl)n2ccnc2)c1 ; value: 0.31 µg/mL
O=S(=O)(c1ccccc1)n1cc(C(F)(F)C(O)(Cn2cncn2)c2ccc(F)cc2F)c2ccccc21 ; strain or isolate: ATCC 90028 ; value: >64 µg/mL
Cc1cccc(-n2c(=S)[nH]c3c(sc(=S)n3-c3cccc(C)c3)c2=O)c1 ; strain or isolate: DSM 70443 ; value: 70 µg/mL
Cc1cc(OCc2nnc3n2N=C(c2cc(F)c(Cl)cc2Cl)/C(=C/c2ccc(Cl)cc2)S3)ccc1Cl ; value: 12.5 µg/mL
CC(CCCCCCCCCCCON1C(N)=NC(N)=NC12CCCCC2)c1ccccc1 ; value: 1.9 µg/mL
COc1cc(O)c2c(c1)C(=O)c1c(cc3c(c1O)-c1c(cc(C)c(C(=O)NC(CO)C(=O)O)c1O)[C@H](OC1OC(C)C(O)C(OC4OCC(O)C(O)C4O)C1O)C3O)C2=O ; strain or isolate: (FLU-R) ; value: 6.25 µg/mL
O=C1C(Br)=C(Nc2ccc(Cl)cc2)C(=O)c2ccccc21 ; value: 100 µg/mL
CCCCCOc1ccc(-c2ccc(-c3ccc(C(=O)N[C@H]4CCCNC(=O)C5C[C@H](N)CN5C(=O)C(CCCN(CCN)CCN)NC(=O)C(CCc5ccc(O)cc5)NC(=O)C5C[C@@H](O)CN5C(=O)C(C(C)O)NC4=O)cc3)cc2)cc1 ; strain or isolate: ATCC CCH442 ; value: 0.2 µg/mL
CCCCCCCCCCCCCCCCCC(=O)NC1CC(O)C(O)NC(=O)C2C(O)C(C)CN2C(=O)C(C(C)O)NC(=O)C(C(O)C(O)c2ccc(O)cc2)NC(=O)C2CC(O)CN2C(=O)C(C(C)O)NC1=O ; strain or isolate: MY1783 ; value: 2 µg/mL
CCCCCC12CCC(C(=O)N[C@H]3CCCNC(=O)C4C[C@H](N)CN4C(=O)C(C(C)O)NC(=O)C(CCc4ccc(O)cc4)NC(=O)C4C[C@@H](O)CN4C(=O)C(C(C)O)NC3=O)(CC1)CC2 ; strain or isolate: ATCC 62376 ; value: 3.12 µg/mL
CC(C)c1nc2ccccc2n1CC(O)(Cn1cncn1)c1ccc(F)cc1F ; value: 6.25–12.5 µg/mL
CCCCCOc1ccc(-c2ccc(-c3ccc(C(=O)N[C@H]4CCCNC(=O)C5CCCN5C(=O)C(C(C)O)NC(=O)C(CCc5ccc(O)cc5)NC(=O)C5C[C@@H](O)CN5C(=O)C(C(C)O)NC4=O)cc3)cc2)cc1 ; strain or isolate: ATCC CCH442 ; value: 6.25 µg/mL
Clc1ccc(-c2c[nH]cc2C(c2ccc(Cl)cc2Cl)n2ccnc2)cc1 ; value: 0.92 µg/mL
CO/N=C/C(C)(C)C(O)(Cn1cncn1)c1ccc(Cl)cc1 ; strain or isolate: B311 ; read by: visual reading ; value: 16 µg/mL
Cc1cccc(-n2c(=S)[nH]c3c(sc(=S)n3-c3ccccc3C)c2=O)c1 ; strain or isolate: DSM 70443 ; value: 80 µg/mL
CCCCCOc1ccc(-c2ccc(-c3ccc(C(=O)N[C@H]4CCCNC(=O)[C@@H]5C[C@H](N)CN5C(=O)[C@H](CCCN)NC(=O)C(CCc5ccc(O)cc5)NC(=O)[C@@H]5C[C@@H](O)CN5C(=O)[C@H]([C@@H](C)O)NC4=O)cc3)cc2)cc1 ; strain or isolate: ATCC 62376 ; value: 0.2 µg/mL
Fc1cc(C2=Nn3c(COc4ccccc4Cl)nnc3S/C2=C\c2ccc3c(c2)OCO3)c(Cl)cc1Cl ; value: 6 µg/mL
Fc1ccc(-n2ccc(C(c3ccccc3)n3ccnc3)c2)cc1 ; value: 4.1 µg/mL
CCCCCOc1ccc(-c2ccc(-c3ccc(C(=O)N[C@H]4CCCNC(=O)[C@@H]5C[C@H](N)CN5C(=O)[C@H](CO)NC(=O)C(CCc5ccc(O)cc5)NC(=O)[C@@H]5C[C@@H](O)CN5C(=O)[C@H]([C@@H](C)O)NC4=O)cc3)cc2)cc1 ; strain or isolate: ATCC 10231 ; value: 0.1 µg/mL
NC[C@H]1O[C@H](O[C@H]2[C@H](O)[C@@H](O[C@H]3O[C@H](CO)[C@@H](O)[C@H](N)[C@H]3O)[C@H](N)C[C@@H]2N)[C@H](O)[C@@H](O)[C@@H]1O ; strain or isolate: Clinical Isolate 092251 ; read by: broth dilution ; value: 18.8 µg/mL
O=C1C(Cl)=C(Nc2ccc(S(=O)(=O)O)cc2)C(=O)c2ccccc21 ; value: 100 µg/mL
CCCCCC1N=C(N)N=C(N)N1OCc1cccc2ccccc12 ; value: 125 µg/mL
N=Nc1cccc(Nc2c(Cl)c(O)c3ccccc3c2O)c1 ; value: 50 µg/mL
Fc1cc(C2=Nn3c(CNc4ccc(Cl)cc4)nnc3S/C2=C\c2ccc(Cl)cc2Cl)c(Cl)cc1Cl ; value: 6 µg/mL
N#Cc1c(-c2cccc(F)c2)cc(-c2cc3cc(F)ccc3oc2=O)nc1NS(=O)(=O)c1ccccc1 ; strain or isolate: MTCC 227 ; read by: turbidity ; value: 500 µg/mL

6 of the rows above, restated:

smiles,strain or isolate,read by,value
COc1ccc2ncn(CC(O)(Cn3cncn3)c3ccc(F)cc3F)c2c1,-,-,100–200 µg/mL
c1ccc(-c2ccc(C(c3ccccc3)n3ccnc3)cc2)cc1,B311,visual reading,8 µg/mL
OC(Cc1ccccn1)(Cn1cncn1)c1ccc(F)cc1F,ATCC 90028,-,0.125 µg/mL
COc1ccc(/C=C2\Sc3nnc(CNc4ccc(F)c(Cl)c4)n3N=C2c2cc(F)c(Cl)cc2Cl)cc1OC,-,-,6 µg/mL
CSc1nc2c(sc(=S)n2-c2ccccc2)c(=O)n1-c1ccccc1,DSM 70443,-,60 µg/mL
CCCCCOc1ccc(-c2ccc(-c3ccc(C(=O)N[C@H]4CCCNC(=O)C5CCCN5C(=O)C(C(C)O)NC(=O)C(CCc5ccc(O)cc5)NC(=O)C5C[C@@H](O)CN5C(=O)C(C(C)O)NC4=O)cc3)cc2)cc1,ATCC CCH442,-,6.25 µg/mL